Tests used:
YYPYYP{LYSN3}NH2 = molecular target: T1, YYPYYP{LYSN3}NH2
T1 chain: YYPYYPX

EEPFQQ = molecular target: T2, EEPFQQ
T2 chain: EEPFQQ

TTPFQQ = molecular target: T3, TTPFQQ
T3 chain: TTPFQQ

MMPFQQ = molecular target: T4, MMPFQQ
T4 chain: MMPFQQ

RRPFQQ = molecular target: T5, RRPFQQ
T5 chain: RRPFQQ

YYPFQQ = molecular target: T6, YYPFQQ
T6 chain: YYPFQQ

AAPAAP{LYSN3}NH2 = molecular target: T7, AAPAAP{LYSN3}NH2
T7 chain: AAPAAPX

KKPFQQ = molecular target: T8, KKPFQQ
T8 chain: KKPFQQ

DDPFQQ = molecular target: T9, DDPFQQ
T9 chain: DDPFQQ

VVPFQQ = molecular target: T10, VVPFQQ
T10 chain: VVPFQQ

NNPFQQ = molecular target: T11, NNPFQQ
T11 chain: NNPFQQ

PPPFQQ = molecular target: T12, PPPFQQ
T12 chain: PPPFQQ

SSPFQQ = molecular target: T13, SSPFQQ
T13 chain: SSPFQQ

YAAFAAWADDDW1 = molecular target: T14, YAAFAAWADDDW1
T14 chain: YAAFAAWADDDW

DDMDDM{LYSN3}NH2 = molecular target: T15, DDMDDM{LYSN3}NH2
T15 chain: DDMDDMX

IIPFQQ = molecular target: T16, IIPFQQ
T16 chain: IIPFQQ

CCPFQQ = molecular target: T17, CCPFQQ
T17 chain: CCPFQQ

PLPWPDDDY{LYSN3}NH2 = molecular target: T18, PLPWPDDDY{LYSN3}NH2
T18 chain: PLPWPDDDYX

AAPFQQ = molecular target: T19, AAPFQQ
T19 chain: AAPFQQ

GGPFQQ = molecular target: T20, GGPFQQ
T20 chain: GGPFQQ

FFPFFP{LYSN3}NH2 = molecular target: T21, FFPFFP{LYSN3}NH2
T21 chain: FFPFFPX

LLPFQQ = molecular target: T22, LLPFQQ
T22 chain: LLPFQQ

FFPFQQ = molecular target: T23, FFPFQQ
T23 chain: FFPFQQ

WWPFQQ = molecular target: T24, WWPFQQ
T24 chain: WWPFQQ

FYPLPWPDDDY{LYSN3}NH2 = molecular target: T25, FYPLPWPDDDY{LYSN3}NH2
T25 chain: FYPLPWPDDDYX

QQPFQQ = molecular target: T26, QQPFQQ
T26 chain: QQPFQQ

HHPFQQ = molecular target: T27, HHPFQQ
T27 chain: HHPFQQ

KKPKKP{LYSN3}NH2 = molecular target: T28, KKPKKP{LYSN3}NH2
T28 chain: KKPKKPX

RRPRRP{LYSN3}NH2 = molecular target: T29, RRPRRP{LYSN3}NH2
T29 chain: RRPRRPX

B1: Pyrococcus horikoshii TET aminopeptidase (protein)
chain: MEVRNMVDYELLKKVVEAPGVSGYEFLGIRDVVIEEIKDYVDEVKVDKLGNVIAHKKGEGPKVMIAAHMDQIGLMVTHIEKNGFLRVAPIGGVDPKTLIAQRFKVWIDKGKFIYGVGASVPPHIQKPEDRKKAPDWDQIFIDIGAESKEEAEDMGVKIGTVITWDGRLERLGKHRFVSIAFDDRIAVYTILEVAKQLKDAKADVYFVATVQEEVGLRGARTSAFGIEPDYGFAIDVTIAADIPGTPEHKQVTHLGKGTAIKIMDRSVICHPTIVRWLEELAKKHEIPYQLEILLGGGTDAGAIHLTKAGVPTGALSVPARYIHSNTEVVDERDVDATVELMTKALENIHELKI
B1 was tested, and the “HPLC Assay Conv; 1 mM peptide, 1 mM enzyme, 70 C/1 hr” value (from here on “HPLC Assay Conv … 70 C/1 hr”) (YYPYYP{LYSN3}NH2) was 100%, the “HPLC Assay Conv; 1 mM Peptide, 1 uM enzyme, RT/0.5 hr” value (EEPFQQ) was 0% and the “HPLC Assay Conv; 1 mM Peptide, 1 uM enzyme, RT/0.5 hr” value (TTPFQQ) was 100%. For the same protein, the “HPLC Assay Conv; 1 mM Peptide, 1 uM enzyme, RT/0.5 hr” value (MMPFQQ) was 0%, the “HPLC Assay Conv; 1 mM Peptide, 1 uM enzyme, RT/0.5 hr” value (RRPFQQ) was 0% and the “HPLC Assay Conv; 1 mM Peptide, 1 uM enzyme, RT/0.5 hr” value (YYPFQQ) was 99%. The “HPLC Assay Conv … 70 C/1 hr” value (AAPAAP{LYSN3}NH2) was 100%, the “HPLC Assay Conv; 1 mM Peptide, 1 uM enzyme, RT/0.5 hr” value (KKPFQQ) was 0% and the “HPLC Assay Conv; 1 mM Peptide, 1 uM enzyme, RT/0.5 hr” value (DDPFQQ) was 4%. For the same protein, the “HPLC Assay Conv; 1 mM Peptide, 1 uM enzyme, RT/0.5 hr” value (VVPFQQ) was 100%, the “HPLC Assay Conv; 1 mM Peptide, 1 uM enzyme, RT/0.5 hr” value (NNPFQQ) was 69% and the “HPLC Assay Conv; 1 mM Peptide, 1 uM enzyme, RT/0.5 hr” value (PPPFQQ) was 0%. The “HPLC Assay Conv; 1 mM Peptide, 1 uM enzyme, RT/0.5 hr” value (SSPFQQ) was 100%, the “HPLC Assay Conv; 1 mM Peptide, 1.0 uM enzyme, RT/0.5 hr” value (YAAFAAWADDDW1) was 100% and the “HPLC Assay Conv … 70 C/1 hr” value (DDMDDM{LYSN3}NH2) was 60%. The “HPLC Assay Conv; 1 mM Peptide, 1 uM enzyme, RT/0.5 hr” value (IIPFQQ) was 100%, the “HPLC Assay Conv; 1 mM Peptide, 1 uM enzyme, RT/0.5 hr” value (CCPFQQ) was 32% and the “HPLC Assay Conv; 200 uM Peptide, 4 uM enzyme, 37 C/1 hr” value (PLPWPDDDY{LYSN3}NH2) was 100%. The “HPLC Assay Conv; 1 mM Peptide, 1 uM enzyme, RT/0.5 hr” value (AAPFQQ) was 100%, the “HPLC Assay Conv; 1 mM Peptide, 1 uM enzyme, RT/0.5 hr” value (GGPFQQ) was 33% and the “HPLC Assay Conv … 70 C/1 hr” value (FFPFFP{LYSN3}NH2) was 100%. The “HPLC Assay Conv; 1 mM Peptide, 1 uM enzyme, RT/0.5 hr” value (LLPFQQ) was 100%, the “HPLC Assay Conv; 1 mM Peptide, 1 uM enzyme, RT/0.5 hr” value (FFPFQQ) was 100% and the “HPLC Assay Conv; 1 mM Peptide, 1 uM enzyme, RT/0.5 hr” value (WWPFQQ) was 4%. The “HPLC Assay Conv; 200 uM Peptide, 2 uM enzyme, MgCl2/MOPS pH 8.0, 37 C/1 hr” value (FYPLPWPDDDY{LYSN3}NH2) was 55%, the “HPLC Assay Conv; 200 uM Peptide, 2 uM enzyme, ZnCl2/Tris pH 8.0, 37 C/1 hr” value (FYPLPWPDDDY{LYSN3}NH2) was 55% and the “HPLC Assay Conv; 1 mM Peptide, 1 uM enzyme, RT/0.5 hr” value (QQPFQQ) was 63%. For the same protein, the “HPLC Assay Conv; 1 mM Peptide, 1 uM enzyme, RT/0.5 hr” value (HHPFQQ) was 26%.

B2: Vibrio anguillarum Aminopeptidase (protein)
chain: MEEKVWISIGGDATQTALRSGAQSLLPENLINQTSVWVGQVPVSELATLSHEMHENHQRCGGYMVHPSAQSAMSVSAMPLNLNAFSAPEITQQTTVNAWLPSVSAQQITSTITTLTQFKNRFYTTSTGAQASNWIADHWRSLSASLPASKVEQITHSGYNQKSVMLTITGSEKPDEWVVIGGHLDSTLGSRTNESSIAPGADDDASGIAGVTEIIRLLSEQNFRPKRSIAFMAYAAEEVGLRGSQDLANRFKAEGKKVMSVMQLDMTNYQGSREDIVFITDYTDSNFTQYLTQLLDEYLPSLTYGFDTCGYACSDHASWHAVGYPAAMPFESKFNDYNPNIHSPQDTLQNSDPTGFHAVKFTKLGLAYVVEMGNASTPPTPSNQLKNGVPVNGLSASRNSKTWYQFELQEAGNLSIVLSGGSGDADLYVKYQTDADLQQYDCRPYRSGNNETCQFSNAQPGRYSILLHGYNNYSNASLVANAQ
B2 was tested, and the “HPLC Assay Conv; 1 mM peptide, 2 uM enzyme, 30 C/1 hr” value (“HPLC Assay Conv … 30 C/1 hr” for short) (AAPAAP{LYSN3}NH2) was 50%, the “HPLC Assay Conv … 30 C/1 hr” value (KKPKKP{LYSN3}NH2) was <5% and the “HPLC Assay Conv … 30 C/1 hr” value (RRPRRP{LYSN3}NH2) was >90%.

From patent US20250283886
